What was measured:
[1] = Metal corrosion inhibition in brake fluid A, tin-plate; details: 100°±2° C., 120±2 hours, blank -0.15
[2] = Metal corrosion inhibition in brake fluid A, steel; details: 100°±2° C., 120±2 hours, blank -0.20
[3] = Metal corrosion inhibition in brake fluid A, aluminum; details: 100°±2° C., 120±2 hours, blank +0.07
[4] = Metal corrosion inhibition in brake fluid A, cast iron; details: 100°±2° C., 120±2 hours, blank -0.14
[5] = Metal corrosion inhibition in brake fluid A, brass; details: 100°±2° C., 120±2 hours, blank -0.20
[6] = Metal corrosion inhibition in brake fluid A, copper; details: 100°±2° C., 120±2 hours, blank +0.18
[7] = Table 4, azaalkenelactams […] by weight in brake fluid A
[8] = Table 5, carboxylate derivatives […] by weight in brake fluid A

| SMILES | Weight change, tin-plate [1, 7] | Weight change, steel [2, 7] | Weight change, aluminum [3, 7] | Weight change, cast iron [4, 7] | Weight change, brass [5, 7] | Weight change, copper [6, 7] | Weight change, tin-plate [1, 8] | Weight change, steel [2, 8] | Weight change, aluminum [3, 8] | Weight change, cast iron [4, 8] | Weight change, brass [5, 8] | Weight change, copper [6, 8] |
| --- | --- | --- | --- | --- | --- | --- | --- | --- | --- | --- | --- | --- |
| CCCCCCCCCCCCCCNCCN1CCCN=CC(C)(C)C1=O [Example 60, 1-tetradecylaminoethyl-3,3-dimethyl-6,7,8-trihydro-1,5-diazocin-5-one] | -0.01 mg/cm^2 | 0 mg/cm^2 | 0 mg/cm^2 | -0.01 mg/cm^2 | -0.01 mg/cm^2 | +0.01 mg/cm^2 | – | – | – | – | – | – |
| CCCCCCCCCCCCCCNCCN1CC[N+](C(C)C(=O)[O-])=CCC(C)C1=O (stereo not drawn) | – | – | – | – | – | – | -0.02 mg/cm^2 | -0.02 mg/cm^2 | 0 mg/cm^2 | -0.02 mg/cm^2 | -0.02 mg/cm^2 | -0.02 mg/cm^2 |
| CCCCCCCCCCCCCCNCCN1CCN=CC(C)C1=O (stereo not drawn) [Example 40, 4-tetradecylaminoethyl-6-methyl-3,6-dihydro-2H-1,4-diazepin-5-one] | -0.01 mg/cm^2 | -0.01 mg/cm^2 | +0.01 mg/cm^2 | -0.01 mg/cm^2 | 0 mg/cm^2 | 0 mg/cm^2 | – | – | – | – | – | – |
| CCCCCCCCCc1ccc(OCC(O)CNCCNCCNCCN2CC[N+](CC(=O)[O-])=CC(C)C2=O)cc1 (stereo not drawn) [4-nonylphenoxy(2-hydroxy)propylaminoethylaminoethylaminoethyl-6-methyl-1-azonia-4-azacyclohept-7-en-5-one-1-acetate] | – | – | – | – | – | – | -0.02 mg/cm^2 | -0.03 mg/cm^2 | +0.02 mg/cm^2 | 0 mg/cm^2 | -0.01 mg/cm^2 | -0.01 mg/cm^2 |
| CCCCCCCCCCCCNCCN1CC[N+](CC(=O)[O-])=C(C)CC1=O [4-dodecylaminoethyl-7-methyl-1-azonia-4-azacyclohept-7-en-5-one-1-acetate] | – | – | – | – | – | – | -0.02 mg/cm^2 | -0.02 mg/cm^2 | +0.01 mg/cm^2 | -0.01 mg/cm^2 | -0.03 mg/cm^2 | -0.04 mg/cm^2 |
| CCCCCCCC(=O)NCCN1CCN=CCCC1=O [Example 56, 4-octamidoethyl-2,3,6,7-tetrahydro-1,4-diazocin-5-one] | -0.02 mg/cm^2 | -0.01 mg/cm^2 | +0.02 mg/cm^2 | -0.02 mg/cm^2 | -0.02 mg/cm^2 | +0.01 mg/cm^2 | – | – | – | – | – | – |
| CCCCCCCC(=O)NCCN1CC[N+](C(C)C(=O)[O-])=CCCC1=O (stereo not drawn) [4-octamidoethyl-4-aza-1-azoniacyclooct-8-en-5-one-1-propionate] | – | – | – | – | – | – | -0.02 mg/cm^2 | -0.03 mg/cm^2 | +0.02 mg/cm^2 | -0.03 mg/cm^2 | -0.01 mg/cm^2 | -0.02 mg/cm^2 |
| CCCCCCCCCCCCCCCCCCCCCC(=O)OCCCN1CCCN=CC(C)C1=O (stereo not drawn) [Example 51, 1-behenoyloxypropyl-3-methyl-3,6,7,8-tetrahydro-1,5-diazocin-2-one] | -0.02 mg/cm^2 | -0.02 mg/cm^2 | 0 mg/cm^2 | -0.01 mg/cm^2 | -0.03 mg/cm^2 | +0.02 mg/cm^2 | – | – | – | – | – | – |
| CCCCCCCCCCC(O)CN1CC[N+](CC(=O)[O-])=C(C)CC1=O (stereo not drawn) [4-(2-hydroxy)dodecyl-7-methyl-1-azonia-4-azacyclohept-7-en-5-one-1-acetate] | – | – | – | – | – | – | -0.01 mg/cm^2 | -0.03 mg/cm^2 | +0.01 mg/cm^2 | -0.02 mg/cm^2 | -0.01 mg/cm^2 | -0.02 mg/cm^2 |
| CCCCCCCCCc1ccc(OCCOCCN2CCCN=CC(C)(C)C2=O)cc1 [Example 62, 1-nonylphenylpoly(2 moles)oxyethyleneoxyethyl-3,3-dimethyl-6,7,8-trihydro-1,5-diazocin-5-one] | -0.01 mg/cm^2 | -0.02 mg/cm^2 | +0.02 mg/cm^2 | -0.02 mg/cm^2 | -0.02 mg/cm^2 | +0.02 mg/cm^2 | – | – | – | – | – | – |
